{"source": "PubChem BioAssay AID504761 (Drosophila RNAi Screening Center, 2011)", "purpose": "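Genome-wide fly cell screen for genes dengue virus requires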 (primary screen)", "cell system": "D.Mel-2 cells from Drosophila", "reagent": "long dsRNA against Drosophila genes", "conditions": "infection with dengue virus type 2; dose and infection time not stated", "measured": "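Per well on two replicate plates, imaging gave the percent of cells positive for viral envelope protein, ranked by infection, and a nuclear count of cells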", "scale": "infection score: higher = more virus-infected cells; cell count: higher = more cells in the well", "call rule": "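Very low infection ranking in both replicate wells (chance probability at most 0.065), then a retest showing infection dropped 1.5-fold or more at p below 0.05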", "calls": "active = confirmed: knock-down lowers infection; inactive = not picked or not confirmed", "note": "The screen tested about 22,000 reagents; below is a random part of those that have a named target and a result. In the full data, 116 (0.52%) are marked active. 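Calls depend on retest data that are not deposited; infection was ranked per plate without normalising between plates; the unit of the infection score is not given.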 Raw values are not corrected between plates. Unmarked entries are inactive. The numbers tell different reagents against one gene apart. Not all columns of the deposit are shown. Reagent sequences are not shown. Not stated in the record: the amount of reagent, the time to read-out."}
{"gene knocked down": "CG10274", "dsRNA no.": 1, "infection score, replicate 1": 13.3, "cell count, replicate 1": 5043}
{"gene knocked down": "CG10274", "dsRNA no.": 2, "infection score, replicate 1": 3.67, "cell count, replicate 1": 6706}
{"gene knocked down": "ric8a", "dsRNA no.": 1, "infection score, replicate 1": 3.83, "cell count, replicate 1": 6509}
{"gene knocked down": "ric8a", "dsRNA no.": 2, "infection score, replicate 1": 6.24, "cell count, replicate 1": 6603}
{"gene knocked down": "mRpL39", "dsRNA no.": 1, "infection score, replicate 1": 6.11, "cell count, replicate 1": 5287}
{"gene knocked down": "hyx", "dsRNA no.": 1, "infection score, replicate 1": 23.1, "cell count, replicate 1": 2199}
{"gene knocked down": "CG15725", "dsRNA no.": 1, "infection score, replicate 1": 7.71, "cell count, replicate 1": 5941}
{"gene knocked down": "CG11597", "dsRNA no.": 1, "infection score, replicate 1": 9.63, "cell count, replicate 1": 6013}
{"gene knocked down": "CG11076", "dsRNA no.": 1, "infection score, replicate 1": 0.62, "cell count, replicate 1": 6456}
{"gene knocked down": "CG30484", "dsRNA no.": 1, "infection score, replicate 1": 5.33, "cell count, replicate 1": 6156}
{"gene knocked down": "Gdh", "dsRNA no.": 1, "infection score, replicate 1": 4.16, "cell count, replicate 1": 5939}
{"gene knocked down": "Gdh", "dsRNA no.": 2, "cell count, replicate 1": 441}

Looked up above.
CG30484, cell count, replicate 1 = 6156
For “infection score, replicate 1”, mRpL39 is entered as 6.11
